Compound potency records, mixed from different reports. Data source: NIAID ChemDB in PubChem.

Common to all: tests in culture; species: HIV-1; method: p24; endpoint: EC90

Blank or dashed fields: not listed here. ECn is the concentration giving n% inhibition of infection, replication or growth. Rows are shuffled and stem from different studies.

smiles	changes	cell line	strain	value
CC(C)(C)NC(=O)[C@@H]1CCCN1C(=O)[C@@H](O)[C@H](Cc1ccccc1)NC(=O)[C@H](CC(N)=O)NC(=O)c1cnc2ccccc2n1	-	MOLT-4/HIV-1(IIIB) + MOLT-4	IIIB	1 µM
O=c1[nH]cnc2c1ncn2[C@H]1CC[C@@H](CO)O1	-	PBMC	HXB2	7.5 µM
CC(C)Nc1cccnc1N1CCN(C(=O)c2cc3cc(NS(C)(=O)=O)ccc3[nH]2)CC1	-	PBMC	6 clinical isolates AZT-resistant	0.1 µM
CCN(c1ncccc1NC(C)(C)C)C1CCN(C(=O)c2cc3cc(NS(C)(=O)=O)ccc3[nH]2)CC1	-	PBMC	Isolate 458	0.03 µM
Cc1cn([C@H]2C[C@H](N=[N+]=[N-])[C@@H](CO)O2)c(=O)[nH]c1=O	-	PBMC	458 clinical isolates delavirdine-resistant	0.3 µM
CC(C)(C)NC(=O)[C@@H]1C[C@H](F)CN1C(=O)[C@@H](O)[C@H](Cc1ccccc1)NC(=O)[C@H](CC(N)=O)NC(=O)OCc1ccccc1	-	CEM	IIIB	5 µM
CC(C)c1nc(CN(C)C(=O)N[C@H](C(=O)N[C@@H](Cc2ccccc2)C[C@H](O)[C@H](Cc2ccccc2)NC(=O)OCc2cncs2)C(C)C)cs1	PR-D30N N88D	MT-4	NL4-3	0.01 µM
CC(C)(C)NC(=O)[C@@H]1C[C@H](Cl)CN1C(=O)[C@@H](O)[C@H](Cc1ccccc1)NC(=O)[C@H](CC(N)=O)NC(=O)c1noc2ccccc12	-	CEM	IIIB	0.16 µM
Cc1cn([C@H]2C[C@H](N=[N+]=[N-])[C@@H](CO)O2)c(=O)[nH]c1=O	-	PBMC	JR-CSF	0.019 µM
CC(C)CN(C[C@@H](O)[C@H](Cc1ccccc1)NC(=O)[C@@H](NC(=O)CNCc1cccc(F)c1)C(C)(C)C)S(=O)(=O)c1cccc(N)c1	-	MT-4	HXB2	0.0053 µM
Nc1ccn([C@H]2CC[C@@H](CO)O2)c(=O)n1	-	PBMC	IIIB	0.08 µM
CC(C)CN(C[C@@H](O)[C@H](Cc1ccccc1)NC(=O)O[C@H]1CCOC1)S(=O)(=O)c1ccc(N)cc1	PR-M46I I47V I50V	PBMC	HXB2	1.94 µM
CC(C)Nc1cccnc1N1CCN(C(=O)c2cc3cc(NS(C)(=O)=O)ccc3[nH]2)CC1	-	PBMC	Isolate 410	>10 µM
CC(C)(C)NC(=O)[C@@H]1C[C@@H]2CCCC[C@@H]2CN1C[C@@H](O)[C@H](Cc1ccccc1)NC(=O)[C@H](CC(N)=O)NC(=O)c1ccc2ccccc2n1	PR-L10I K20R M36I/V P63L/S L90M	PBMC	BR59 (PR L10I K20R M36I/V P63L/S L90M)	0.018 µM
O=c1[nH]cnc2c1ncn2[C@H]1CC[C@@H](CO)O1	RT-A62V V75I F77C F116Y Q151M	MT-4	XM-Q151M	54 µM
CC(C)(C)NC(=O)[C@@H]1C[C@H](Cl)CN1C(=O)[C@@H](O)[C@H](Cc1ccccc1)NC(=O)[C@H](CC(N)=O)NC(=O)c1cnc2ccccc2n1	-	MOLT-4/HIV-1(IIIB) + MOLT-4	IIIB	1.2 µM
CC(=O)c1ccccc1NC(C(N)=O)c1c(Cl)cccc1Cl	RT-P236L	MT-4	DLV-resistant MF (RT-P236L)	0.08 µM
Cc1cn([C@H]2C[C@H](N=[N+]=[N-])[C@@H](CO)O2)c(=O)[nH]c1=O	RT-T69SSS L210W T215Y	MT-4	XM-T69SSS	77 µM

For reference, 2 entries again:

| smiles | changes | cell line | strain | value |
|---|---|---|---|---|
| Cc1cn([C@H]2C[C@H](N=[N+]=[N-])[C@@H](CO)O2)c(=O)[nH]c1=O | RT-T69SSS L210W T215Y | MT-4 | XM-T69SSS | 77 µM |
| CC(C)Nc1cccnc1N1CCN(C(=O)c2cc3cc(NS(C)(=O)=O)ccc3[nH]2)CC1 | - | PBMC | Isolate 410 | >10 µM |